This is an account of results in the supplement of paper PMC12637763.

Positions count from the first letter of the chain named. The list shows a part of the results. Env chains of viruses from a treatment-interruption trial, translated from the printed DNA. IC50 / IC80 of two broadly neutralizing antibodies; lower = more sensitive virus; >50 µg/ml means not reached and <0.001 µg/ml is below the lowest dose. No active / inactive call.

In assay [1] the target is antibody 10-1074. The assay can be described thus: neutralization IC50; higher = virus less sensitive to the antibody. As for the experimental part: (§1)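 Pseudovirus bearing the Env chain mixed with antibody, from 50 µg/ml in fivefold dilutions, on TZM-bl reporter cells, in duplicate.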
The target in assay [2] is antibody 3BNC117. Described as above. The method, then: as §1
For assay [3], the target named is antibody 10-1074. Nature of the assay: neutralization IC80; higher = virus less sensitive to the antibody. As for the experimental part: as §1
In assay [4] the target is antibody 3BNC117. The description is as above. The method, then: as §1

B1: HIV-1 Env, rebound clone, placebo arm (protein)
chain: MIVMGMKRNWQQWWRGGILLLGMLMMICSAEDNAWVTVYYGVPVWREANVTLFCASDAKAYDTEVHNVWATHACVPTDPSPQEIKLENVTENFNMWKNDMVEQMHEDIISLWDQSLKPCVKLTPLCVTLNCTDYLGSNATNSTSGNNGTISNNITIEDSEKGEIKNCSFNVTTGIRDKMNKEYALLYKTDLVSIDNDNTSYRLISCNTSVITQACPKVTFEPIPIHYCAPAGFAILKCKDKKFNGTGPCKNVSTVQCTHGIRPVVSTQLLLNGSLAEEDVVIRSANFTNNAKVIIVQLNETVEINCTRPNNNTRKGINIGPGRAWYTIKDIVGDIRQAHCNISRPKWNRALEKIVEKLREQFGVNKTIVFNQSSGGDPEIVMHHFNCQGEFFYCNTTGLFNTRWNDTWENYTAGQGNNETITLPCRIRQIVNLWQEVGKAMYAPPIRGYINCSSNITGLLLVRDGGIKNSTNDTDNNTEIFRPGGGDMRDNWRSELYKYKVVQVEPVGIAPTRAKRRVVQREKRAVTLGAMFLGFLGTAGSTMGAASLTLTVQVRQLLSGIVQQQNNLLRAIEAQQHLLQLTVWGIKQLQARVLAVERYLRDQQILGIWGCSGKLICTTAVPWNTSWSNKSVDHIWGNMTWMQWEREIENYTGVIYKLLEESQNQQEKNEQDLLELDKWASLWTWFDITHWLWYIRLFIMIVGGLIGLRIVFAVFSLVNRVRQGYSPLSFQTHLPAPRGPDRPEGIEEEGGEPDRGRSVRLVNGFLALIWDDLRSLCLFSYHRLRDLLLIVTRIVELLGRRGWEAIKYLWNLLQYWSQELKNSAVSLLNAFAIAVAEGTDRVIEIIQGAFRAIIHIPRRIRQGLERSLL
Consider B1, for which the results for the “neutralization IC50” value in assay [1] and in assay [2] were 0.299 µg/mL and 0.316 µg/mL, respectively. In addition, the “neutralization IC80” value in assay [3] came out at 1.03 µg/mL; in assay [4] it was 1.46 µg/mL.

B2: HIV-1 Env, rebound clone, placebo arm (protein)
chain: MIVMGMKRNWQQWWRGGILLLGMLMMICSAEDNAWVTVYYGVPVWREANVTLFCASDAKAYDTEVHNVWATHACVPTDPSPQEIKLENVTENFNMWKNDMVEQMHEDIISLWDQSLKPCVKLTPLCVTLNCTDYLGSNATNSTSGNNGTISNNITIEDSEKGEIKNCSFNVTTGIRDKMNKEYALLYKTDLVSIDNDNTSYRLISCNTSVITQACPKVTFEPIPIHYCAPAGFAILKCKDKKFNGTGPCKNVSTVQCTHGIRPVVSTQLLLNGSLAEEDVVIRSANFTNNAKVIIVQLNETVEINCTRPNNNTRKGINIGPGRAWYTIKDIVGDIRQAHCNISRPKWNRALEKIVEKLREQFGVNKTIVFNQSSGGDPEIVMHHFNCQGEFFYCNTTGLFNTRWNGTWNDTWENYTAGQDNNGTITLPCRIRQIVNLWQEVGKAMYAPPIRGYINCSSNITGLLLVRDGGIKNSTNDTDNNTEIFRPGGGDMRDNWRSELYKYKVVQVEPVGIAPTRAKRRVVQREKRAVTLGAMFLGFLGTAGSTMGAASLTLTVQVRQLLSGIVQQQNNLLRAIEAQQHLLQLTVWGIKQLQARVLAVERYLRDQQILGIWGCSGKLICTTAVPWNTSWSNKSVDHIWGNMTWMQWEREIENYTGVIYKLLEESQNQQEKNEQDLLELDKWASLWTWFDITHWLWYIRLFIMIVGGLIGLRIVFAVFSLVNRVRQGYSPLSFQTHLPAPRGPDRPEGIEEEGGEPDRGRSVRLVNGFLALIWDDLRSLCLFSYHRLRDLLLIVTRIVELLGRRGWEAIKYLWNLLQYWSQELKNSAVSLLNAFAIAVAEGTDRVIEIIQGAFRAIIHIPRRIRQGLERSLL
B2: the “neutralization IC50” value in assay [1] is 0.15 µg/mL; in assay [2], 0.255 µg/mL. The “neutralization IC80” value in assay [3] was 0.424 µg/mL; in assay [4], 0.886 µg/mL.

B3: HIV-1 Env, rebound clone, placebo arm (protein)
chain: B2 chain with D420S, G423E
As for B3, the entries for the “neutralization IC50” value in assay [1] and in assay [2] were 0.243 µg/mL and 0.238 µg/mL, respectively. In addition, the “neutralization IC80” value is 0.909 µg/mL in assay [3] and 1.15 µg/mL in assay [4].
